# pEC50: −log10 of the molar value.
# Assay: Inhibition of protease L10F/V32I/M46I/I47V/Q58E/I84V mutant in HIV1 A17 infected in human MT4 cells assessed as reduction in virus-induced cytopathic effect after 5 days by MTT assay
smiles,measurement,value
Cc1cccc(C)c1OCC(=O)N[C@@H](Cc1ccccc1)[C@@H](O)C[C@H](Cc1ccccc1)NC(=O)[C@H](C(C)C)N1CCCNC1=O [CHEBI:31781],pEC50,5.94

# — BindingDB's records for doi:10.1021/acs.jmedchem.7b01709 (Kobe Gakuin University, 2018)
